What was measured:
fungi = details: cited U.S. Pat. Nos. 3,178,447 and 2,553,770; cited from earlier work
[1] = system: Phytophthora infestans conidia; experiment: Tomato Late Blight control test; format: in vivo; details: @ 250 ppm; tomato (Bonny Best) seedlings sprayed, inoculated one day later; approximately 7 days; relative to untreated check plants
[2] = system: Alternaria solani conidia; experiment: Tomato Early Blight control test; format: in vivo; details: @ 250 ppm; tomato (Bonny Best) seedlings sprayed, inoculated one day later; about 12 days; relative to untreated check plants
Erysiphe polygoni = experiment: Powdery Mildew test on bean seedlings; format: in vivo; details: @ 250 ppm; bean seedlings (var. Bountiful) sprayed, inoculated one day later; about 10 days; relative to untreated check plants

Row | SMILES | fungicidal activity (fungi) | % Control, Tomato Late Blight [1] [%] | % Control, Tomato Early Blight [2] [%] | % Control, Bean Powdery Mildew (Erysiphe polygoni) [%]
1 | O=C1c2ccccc2C(=O)N1SC(Cl)(Cl)C(Cl)Cl | having fungicidal activity | – | – | –
2 | CC1(C)C(=O)N(SC(Cl)(Cl)C(Cl)Cl)C(=O)c2ccccc21 | – | 50 | 73 | 0

Source: US4230711A (priority 1979, dated 1980)
